Taken from: PubChem BioAssay AID504761 (Drosophila RNAi Screening Center, 2011)

Aim: 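Fly genes whose silencing reduces dengue virus type 2 infection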 (primary screen)
System: D.Mel-2 cells from Drosophila
Reagents: long dsRNA against Drosophila genes
Conditions: infection with dengue virus type 2; dose and infection time not stated
Measurement: 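Cells stained for dengue envelope protein and imaged; percent of infected cells per well on duplicate plates, ranked by infection, with stained nuclei counted for cell number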
Scale: infection score: higher = more virus-infected cells; cell count: higher = more cells in the well
Call rule: 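Very low infection ranking in both replicate wells (chance probability at most 0.065), then a retest showing infection dropped 1.5-fold or more at p below 0.05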
Meaning of the calls: active = confirmed: knock-down lowers infection; inactive = not picked or not confirmed
In all, the deposit lists about 22,000 reagents; shown is an unselected part of those with a known target gene and a result. Over the whole deposit, 116 (0.52%) were called active. 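Calls depend on retest data that are not deposited; infection was ranked per plate without normalising between plates; the unit of the infection score is not given.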 Raw values are not corrected between plates. The record does not give: the amount of reagent, the time to read-out.

| predicted target | PubChem SID | infection score, replicate 1 | infection score, replicate 2 | cell count, replicate 1 | cell count, replicate 2 | Call |
| --- | --- | --- | --- | --- | --- | --- |
| CG31121 | SID104195153 | – | 18.5 | 274 | 2069 | inactive |
| CG31121 | SID104195155 | 11.9 | 10 | 5383 | 800 | inactive |
| CG14684 | SID104194699 | 3.6 | 7.6 | 5857 | 5818 | inactive |
| CG15048 (retired record) | SID104199416 | 8.91 | 3.03 | 6181 | 6412 | inactive |
| CG12128 | SID104185896 | 6.89 | 5.79 | 6055 | 6222 | inactive |
| CG12128 | SID104208502 | 17 | 11.2 | 4442 | 5681 | inactive |
| CG5961 | SID104195719 | 18.9 | 11 | 6544 | 6634 | inactive |
| CG5961 | SID104205696 | 8.15 | 12.7 | 6671 | 6437 | inactive |
| CG4377 | SID104184259 | 22.9 | 50.1 | 6018 | 5096 | inactive |
| CG4377 | SID104206950 | 15.7 | 7.88 | 3821 | 2499 | inactive |
| CG32809 | SID104198299 | 7.67 | 13.4 | 6313 | 6070 | inactive |
| CG32809 | SID104198354 | 4.52 | 7.33 | 5904 | 3058 | inactive |
| CG32809 | SID104198384 | – | 1.71 | 47 | 6359 | inactive |
| CG17385 | SID104186456 | 8.91 | 6.87 | 6895 | 6284 | inactive |
| CG17385 | SID104205543 | 7.38 | 33.2 | 6625 | 5375 | inactive |
| CG31784 | SID104181366 | 9.05 | 5.52 | 6031 | 5893 | inactive |
| unc-45 (uncoordinated 45) | SID104195241 | 5.06 | 14.6 | 6901 | 4759 | inactive |
| CG8149 | SID104196183 | 5.4 | 7.12 | 6533 | 6246 | inactive |
| Tbcd (Tubulin-binding cofactor D) | SID104180065 | 7.71 | 10.6 | 6189 | 5642 | inactive |
| Ggamma1 (G protein gamma subunit 1) | SID104187227 | 1.86 | 4.36 | 6664 | 6610 | inactive |
| Obp50d (Odorant-binding protein 50d) | SID104185275 | 1.86 | 2.32 | 6455 | 5650 | inactive |
| squ (squash) | SID104181341 | 6.23 | 3.21 | 5766 | 5885 | inactive |
| Su(var)205 (Suppressor of variegation 205) | SID104183238 | 3.31 | 7.78 | 6105 | 5604 | inactive |
| CG9483 | SID104183018 | 19.6 | 23.4 | 5833 | 4680 | inactive |
| CG9483 | SID104208473 | 2.02 | 1.94 | 6725 | 6511 | inactive |
| CG13159 | SID104186075 | 1.63 | 16 | 6509 | 6538 | inactive |
| CG13159 | SID104206637 | 17.9 | 12.5 | 4784 | 6705 | inactive |
| CG4210 | SID104195343 | 6.66 | 11.9 | 6442 | 5402 | inactive |
| CG4210 | SID104205932 | 17.2 | 13.6 | 5947 | 6214 | inactive |
| CG10862 | SID104187962 | 0.62 | 4.89 | 6448 | 6518 | inactive |
| hrm (hermes) | SID104184645 | 8.37 | 4.19 | 6335 | 1073 | inactive |
| Orc6 (Origin recognition complex subunit 6) | SID104187289 | 2.97 | 13.8 | 6435 | 6012 | inactive |
| tfc (triforce) | SID104187745 | 0.91 | 1.61 | 6581 | 5963 | inactive |
| tfc (triforce) | SID104187746 | 0.19 | 0.35 | 5863 | 5652 | inactive |
| tfc (triforce) | SID104188418 | 3.55 | 3.93 | 6443 | 6559 | inactive |
| tfc (triforce) | SID104201381 | 2.71 | 2.58 | 6426 | 6796 | inactive |
| tfc (triforce) | SID104202873 | 6.7 | 6.74 | 6198 | 6153 | inactive |
| CG14416 | SID104198431 | 2.67 | 10.6 | 712 | 5479 | inactive |
| CG14416 | SID104208348 | 10.4 | 7.81 | 6014 | 6258 | inactive |
| hpo (hippo) | SID104185857 | 18.1 | 8.92 | 5823 | 1771 | inactive |
| mRpL12 (mitochondrial ribosomal protein L12) | SID104190259 | 1.29 | 5.92 | 855 | 1639 | inactive |
| mRpL12 (mitochondrial ribosomal protein L12) | SID104207069 | 7.14 | 17.6 | 1680 | 5294 | inactive |
| CG10588 | SID104191420 | 15.7 | 6.75 | 6148 | 3451 | inactive |
| CAH6 (Carbonic anhydrase 6) | SID104195297 | 7.28 | 2.91 | 2529 | 6908 | inactive |
| CG14327 | SID104194598 | 8.87 | 1.86 | 5694 | 6307 | inactive |
| CG14356 | SID104194611 | 6.15 | 16 | 6354 | 6201 | inactive |
| Spn55B (Serpin 55B) | SID104187486 | 7.8 | 21 | 6220 | 5959 | inactive |
| Spn55B (Serpin 55B) | SID104201502 | 6.56 | 3.02 | 6856 | 6621 | inactive |
| Spn55B (Serpin 55B) | SID104206505 | 11.1 | 8.7 | 5354 | 5012 | inactive |
| Cnb (Centrobin) | SID104188361 | 12.1 | 3.96 | 6506 | 7093 | inactive |
| CG3961 | SID104190182 | 14 | 15.9 | 6176 | 5553 | inactive |
| CG3961 | SID104190183 | 8.69 | 2.79 | 6824 | 6745 | inactive |
| CG13857 | SID104194499 | 17.1 | 21.5 | 6161 | 5557 | inactive |
| Gr9a (Gustatory receptor 9a) | SID104201956 | 1.44 | 7.96 | 5985 | 6624 | inactive |
| CG9760 | SID104190893 | 1.59 | 3.83 | 6273 | 6716 | inactive |
| CG9760 | SID104207390 | – | 0.47 | 405 | 423 | inactive |
| CG17258 | SID104180287 | 2.59 | 1.7 | 6225 | 6833 | inactive |
| CG17258 | SID104202094 | 3.07 | 8.22 | 7243 | 3502 | inactive |
| CG17258 | SID104207068 | 7.67 | 19.2 | 3037 | 6072 | inactive |
| MED24 (Mediator complex subunit 24) | SID104190736 | 1.66 | 0.86 | 5837 | 6491 | inactive |
| Slob (Slowpoke binding protein) | SID104182088 | 8.41 | 3.34 | 2366 | 6502 | inactive |
| btv (beethoven) | SID104181407 | 0.81 | 0.5 | 6151 | 5839 | inactive |
| btv (beethoven) | SID104182241 | 0.14 | 0.94 | 717 | 6922 | inactive |
| CG15337 | SID104197812 | 6.69 | 6.1 | 6221 | 6464 | inactive |
| CG15337 | SID104202139 | 0.85 | 5.78 | 5634 | 7523 | inactive |
| ppk29 (pickpocket 29) | SID104183997 | 1.11 | 0.4 | 628 | 501 | inactive |
| CG13123 | SID104182011 | 2.25 | 5.65 | 6124 | 6899 | inactive |
| Eig71Eb (Ecdysone-induced gene 71Eb) | SID104190941 | 1.01 | 4.13 | 5630 | 5760 | inactive |
| cyst (cysts) | SID104181815 | 16.8 | 8.75 | 6609 | 6274 | inactive |
| ppl (pumpless) | SID104191691 | 3.76 | 6.84 | 6224 | 5834 | inactive |
| ppl (pumpless) | SID104206383 | 24.1 | 10.4 | 4408 | 6683 | inactive |
| inv (invected) | SID104187425 | 4.87 | 7.05 | 6264 | 5832 | inactive |
| inv (invected) | SID104208124 | – | 23.6 | 405 | 4649 | inactive |
| Hmbs (Hydroxymethylbilane synthase) | SID104188424 | 5.3 | 5.35 | 6662 | 5662 | inactive |

Looked up above:
Hmbs (Hydroxymethylbilane synthase) [SID104188424], cell count, replicate 1: 6662
Under “cell count, replicate 1”, Su(var)205 (Suppressor of variegation 205) [SID104183238] reads 6105
CG15048 (retired record) [SID104199416], infection score, replicate 1: 8.91
